Pooled drug test results. Numbers come from NIAID ChemDB, via PubChem.

Common to all: target-level tests; species: HIV-1; target: Reverse transcriptase

Lines come from different laboratories, so protocols vary. Blank or dashed fields: not listed here. ICn is the concentration giving n% inhibition.

SMILES,endpoint,read by,strain,mutations,result
Nc1ncnc2c1ncn2CCOCP(=O)(O)OP(=O)(O)OP(=O)(O)O,IC50,nucleotide incorporation,,,0.083 µM
CCOC(=O)Cc1csc(NC(=S)NC[C@@H](C)c2ccccc2)n1,IC50,nucleotide incorporation,,,>100 µM
C/C(=C\C=C\[C@@H](C)C1CC[C@@]2(C)[C@@H]3CC[C@H]4C(C)(C)C(=O)CC[C@]4(C)[C@@]3(O)CC[C@]12C)C(=O)O,IC50,RT activity / radiometric,,,102 µM
C[C@@H](CNC(=S)Nc1ccc(Br)cn1)c1ccccc1,IC50,nucleotide incorporation,,,0.4 µM
COc1ccc(C(=O)N2CCC(NC(=O)c3cc(O)c(O)c(O)c3)CC2)cc1,IC50,ELISA / nucleotide incorporation,BH10,,151.8 µM
N#Cc1ccc(S(=O)(=O)c2cccc(N)c2C#N)cc1,IC50,,,,1.8 µM
Cc1cc2c(C(C)C)c(O)c(O)c3c(N)oc(/c1=c1/c(C)cc4c(C(C)C)c(=O)c(=O)c5c(N)oc1c45)c23,IC50,nucleotide incorporation / radiometric,,,>10 µM
COC(=O)[C@H](Cc1c[nH]c2ccccc12)NC(=O)OC[C@H]1O[C@@H](n2cc(C)c(=O)[nH]c2=O)C[C@@H]1N=[N+]=[N-],IC50,radiometric,,,>100 µM
O=C1CN(C(=O)c2cc(-c3cc(F)cc(Cl)c3)n(-c3ccc(F)c(Cl)c3)n2)CN1,IC50,RT activity / absorbance,,,0.038 µM
COc1cc2c(c(OC)c1OC)-c1c(cc3c(c1OC)OCO3)C[C@H](C)[C@@](C)(O)C2,IC50,nucleotide incorporation,,,100 µM
O=C(O)c1cc(O)c(O)c(O)c1,IC50,nucleotide incorporation,,,>1000 µM
CC(C)(C)OC(=O)N1CCN(C(=O)c2cc(O)c(O)c(O)c2)CC1,IC50,ELISA / nucleotide incorporation,BH10,,>50 µM
CCCN(C)C(=O)Oc1nsnc1-c1c(Cl)cccc1Cl,IC50,,,,0.29 µM
CO[C@H]1/C=C/O[C@@]2(C)Oc3c(C)c(O)c4c(c3C2=O)C(=O)C(SCCOC(=O)CCC(=O)OC[C@H]2O[C@@H](n3cc(C)c(=O)[nH]c3=O)C[C@@H]2N=[N+]=[N-])=C(NC(=O)/C(C)=C\C=C\[C@H](C)[C@@H]2OC(C)(C)O[C@@H]([C@@H](C)[C@H](OC(C)=O)[C@@H]1C)[C@@H]2C)C4=O,IC50,RT activity,IIIB,,~300 µM
Cc1cc(S(N)(=O)=O)ccc1NC(=O)COc1ccc(Cl)cc1C(=O)c1cc(Cl)cc(C#N)c1,IC50,fluorescence,,RT-P236L,0.0068 µM
Cc1cc(S(N)(=O)=O)ccc1NC(=O)COc1ccc(Cl)c(Oc2cc(C#N)cc(C3CC3)c2)c1F,IC50,scintillation proximity / radiometric,,,0.0184 µM
CC(=O)O[C@@H](/C=C(\C)C(=O)O)C[C@@H](C)[C@H]1CC[C@@]2(C)C3CC[C@H]4C(C)(C)C(=O)CC[C@]4(C)C3=CC[C@]12C,IC50,RT activity / radiometric,,,24.84 µM
Cc1ccccc1S(=O)(=O)c1cccc(N)c1C#N,IC50,,,,13 µM
Nc1ncnc2c1ncn2[C@H]1CC[C@@H](COP(=O)(O)OP(=O)(O)OP(=O)(O)O)O1,Ki,nucleotide incorporation / radiometric,,RT-A62V V75I F77L F116Y Q151M,3.3 µM
Cc1cc(C)nc(N2C(=O)CSC2c2c(F)cccc2Cl)n1,IC50,nucleotide incorporation / radiometric,,,2.5 µM
Nc1ncnc2c1ncn2OCCOCP(=O)(O)OP(=O)(O)OP(=O)(O)O,IC50,,,,0.66 µM
Nc1nc2c(ncn2[C@@H]2C=C[C@H](OCP(=O)(O)OP(=O)(O)OP(=O)(O)O)C2)c(=O)[nH]1,IC50,,,,1.5 µM
CC[C@H]1CN2CCc3cc(OC)c(OC)cc3[C@@H]2C[C@@H]1C[C@H]1NCCc2cc(OC)c(OC)cc21,IC50,RT activity / nucleotide incorporation / absorbance,NL4-3,,10 µM
O=c1c(O[C@@H]2O[C@H](CO)[C@@H](O)[C@H](O)[C@H]2O)c(-c2ccc(O)c(O)c2)oc2cc(O)cc(O)c12,IC50,nucleotide incorporation,,,50 µM
CCc1cc(CCc2nc3c(Cl)ccc(Cl)c3o2)c(=O)[nH]c1C,IC50,nucleotide incorporation,,,0.017 µM
Cc1cn([C@H]2CC[C@@H](COP(=O)(O)OP(=O)(O)OP(=O)(O)O)O2)c(=O)[nH]c1=O,IC50,nucleotide incorporation / radiometric,,RT-I132A,0.07 µM
Cc1cn([C@H]2C=C[C@@H](COP(=O)(O)OP(=O)(O)OP(=O)(O)O)O2)c(=O)[nH]c1=O,Ki,nucleotide incorporation / radiometric,,RT-K65R,0.78 µM
Cc1ccc(NC(=S)NC[C@H](C)c2ccccc2)nc1,IC50,nucleotide incorporation,,,0.5 µM
O=c1c(O[C@@H]2OC[C@@H](O)[C@H](O)[C@@H]2O)c(-c2ccc(O)c(O)c2)oc2cc(O)cc(O)c12,IC50,nucleotide incorporation,,,1000 µM
N#Cc1c(N)cccc1S(=O)(=O)c1cccc(F)c1,IC50,,,,5 µM
Cc1cn([C@@H]2O[C@H](CO[Si](C)(C)C(C)(C)C)C3(OS(=O)(=O)C=C3N)[C@H]2O[Si](C)(C)C(C)(C)C)c(=O)n(C)c1=O,IC50,nucleotide incorporation,,,0.99 µM
CC(=O)Nc1nc(C)c(S(=O)(=O)N2CCC(NC(=O)c3cc(O)c(O)c(O)c3)CC2)s1,IC50,ELISA / nucleotide incorporation,BH10,,>237.8 µM
COc1cc2c(c(OC)c1OC)-c1c(cc3c(c1OC)OCO3)C[C@H](C)[C@H](C)C2,IC50,nucleotide incorporation,,,29 µM
Cc1ncc([N+](=O)[O-])n1CCSC(c1ccccc1)c1ccccc1,IC50,nucleotide incorporation / radiometric,WT,,10.64 µM
Oc1c(Cl)cc(Cl)cc1-c1c(Cl)cc(Cl)c(Oc2ccc(Cl)cc2Cl)c1O,IC50,,,,54 µM
COC(=O)/C(C)=C/C=C/[C@@H](C)C1CC[C@@]2(C)[C@@H]3CC[C@H]4C(C)(C)C(=O)CC[C@]4(C)C3=CC[C@]12C,IC50,RT activity / radiometric,,,107 µM
CNC(=O)[C@@H](Cc1c[nH]c2ccccc12)NC(=O)OC[C@H]1O[C@@H](n2cc(C)c(=O)[nH]c2=O)C[C@@H]1N=[N+]=[N-],IC50,radiometric,,,>100 µM
O=c1c(O)c(-c2ccc(O)c(O)c2)oc2cc(O)cc(O)c12,IC50,nucleotide incorporation,,,635 µM
Nc1nc2c(ncn2[C@H]2CC[C@@H](COP(=O)(O)OP(=O)(O)OP(=O)(O)O)O2)c(=O)[nH]1,IC50,nucleotide incorporation,,,0.05 µM
CC(=O)Oc1cccc(OC(C)=O)c(=O)c1OC(C)=O,IC50,radiometric,,,1000 µM
Cc1cc(C)nc(N2C(=O)CSC2c2c(Cl)cccc2Cl)n1,IC50,nucleotide incorporation / radiometric,,,0.87 µM
COc1ccc(C(=O)N2CCN(C(=O)c3cc(O)c(O)c(O)c3)CC2)cc1,IC50,ELISA / nucleotide incorporation,BH10,,>50 µM
COc1cc(C)nc(N2C(=O)CSC2c2c(Cl)cccc2Cl)n1,IC50,nucleotide incorporation / radiometric,,,0.97 µM
COC(=O)[C@@H](Cc1ccccc1)NC(=O)OC[C@H]1O[C@@H](n2cc(C)c(=O)[nH]c2=O)C[C@@H]1N=[N+]=[N-],IC50,radiometric,,,>100 µM
O=c1c(O[C@@H]2O[C@H](CO)[C@@H](O)[C@H](O)[C@H]2O)c(-c2ccc(O)cc2)oc2cc(O)cc(O)c12,IC50,nucleotide incorporation,,,125 µM
CO[C@H]1/C=C/O[C@@]2(C)Oc3c(C)c(O)c4c(c3C2=O)C(=O)C(SCCOC(=O)CCCC(=O)OC[C@@H]2O[C@H](n3cc(C)c(=O)[nH]c3=O)C[C@H]2N=[N+]=[N-])=C(NC(=O)/C(C)=C\C=C\[C@H](C)[C@@H]2OC(C)(C)O[C@@H]([C@@H](C)[C@H](OC(C)=O)[C@@H]1C)[C@@H]2C)C4=O,IC50,RT activity,IIIB,,~300 µM
COc1ccccc(-c2cncnc2)c1=O,IC50,radiometric,,,>1000 µM
CC(=O)O[C@H]1CC[C@]2(C)C3CC=C4C5[C@@H](C)[C@H](C)CC[C@]5(C(=O)O)CC[C@@]4(C)[C@]3(C)CC[C@H]2C1(C)C,IC50,RT activity / fluorescence,MC99,,210 µM
COc1ccc2nc(NC(=S)N[C@@H](C)c3ccccc3)sc2c1,IC50,nucleotide incorporation,,,>100 µM
N#Cc1c(N)cccc1S(=O)(=O)c1ccccc1Cl,IC50,,,,7.3 µM
O=C(/C=C/c1ccc(O)c(O)c1)O[C@H]1[C@H](O)C[C@](O)(C(=O)O)C[C@H]1OC(=O)/C=C/c1ccc(O)c(O)c1,IC50,,IIIB,,9 µg/mL
C[C@H](CNC(=S)Nc1ccccn1)c1ccccc1,IC50,nucleotide incorporation,,,3.5 µM
COC(=O)[C@H](Cc1ccccc1)NC(=O)OC[C@H]1O[C@@H](n2cc(C)c(=O)[nH]c2=O)C[C@@H]1N=[N+]=[N-],IC50,radiometric,,,>100 µM
CO[C@H]1/C=C/O[C@@]2(C)Oc3c(C)c(O)c4c(c3C2=O)C(=O)C(SCCOC(=O)CCCC(=O)OC[C@@H]2O[C@H](n3cc(C)c(=O)[nH]c3=O)C[C@H]2N=[N+]=[N-])=C(NC(=O)/C(C)=C\C=C\[C@H](C)[C@H](O)[C@@H](C)[C@@H](O)[C@@H](C)[C@H](OC(C)=O)[C@@H]1C)C4=O,IC50,RT activity,IIIB,,~300 µM
CNC(=O)[C@@H](Cc1ccccc1)NC(=O)OC[C@H]1O[C@@H](n2cc(C)c(=O)[nH]c2=O)C[C@@H]1N=[N+]=[N-],IC50,radiometric,,,>100 µM
Cc1cccc(S(=O)(=O)c2cccc(N)c2C#N)c1,IC50,,,,4.5 µM
Nc1ncnc2c1ncn2CC(CF)OCP(=O)(O)OP(=O)(O)OP(=O)(O)O,Ki,nucleotide incorporation,,,0.034 µM
O=C(O)CN1CC2c3cc4c5c6c3-c3c(cc7c8c3C6C3c6c-5c(cc5ccc9cc(c-8c3c9c65)C7)C4)C2C1C(=O)O,IC50,nucleotide incorporation / radiometric,,,1 µM
Nc1ccn([C@H]2CC[C@@H](COP(=O)(O)OP(=O)(O)OP(=O)(O)O)O2)c(=O)n1,Ki,nucleotide incorporation / radiometric,,RT-T215Y,0.62 µM
Cc1cc(C)c2nc(NC(=S)NC[C@H](C)c3ccccc3)sc2c1,IC50,nucleotide incorporation,,,38.8 µM

Again, the opening 4 rows:

SMILES,endpoint,read by,strain,mutations,result
Nc1ncnc2c1ncn2CCOCP(=O)(O)OP(=O)(O)OP(=O)(O)O,IC50,nucleotide incorporation,,,0.083 µM
CCOC(=O)Cc1csc(NC(=S)NC[C@@H](C)c2ccccc2)n1,IC50,nucleotide incorporation,,,>100 µM
C/C(=C\C=C\[C@@H](C)C1CC[C@@]2(C)[C@@H]3CC[C@H]4C(C)(C)C(=O)CC[C@]4(C)[C@@]3(O)CC[C@]12C)C(=O)O,IC50,RT activity / radiometric,,,102 µM
C[C@@H](CNC(=S)Nc1ccc(Br)cn1)c1ccccc1,IC50,nucleotide incorporation,,,0.4 µM